Data reported in patent US20260226034A1 (The Rockefeller University, priority 2023, published 2026).

Biological target: NSP14 (Severe acute respiratory syndrome coronavirus 2, UniProt P0DTD1)
Experiment: NSP14 MTase inhibition assay at 37° C. (MTase-Glo SAH detection)
Conditions: read-out: Nsp14 Mtase Inh. IC50, 0.3 nM NSP14, 2.5 μM SAM, 2.5 μM GpppA RNA

| SMILES | IC50 (45 min at 37° C.) [nM] | IC50 (37° C.) [nM] |
| --- | --- | --- |
| Cc1[nH]c(C(=O)NCc2c(F)ccc3occc23)cc1S(=O)(=O)c1ccc2c(cnn2C)c1 | 90 |  |
| Cc1c(S(=O)(=O)c2cnc3c(cnn3C)c2)cc(C(=O)NCc2c(F)ccc3occc23)n1C | 98 |  |
| Cc1c(S(=O)(=O)c2ccc3[nH]ncc3c2)cc(C(=O)NCc2cccc3c2C(=O)N(C)C3=O)n1C |  | 0.2 |
| Cc1c(S(=O)(=O)c2ccc3[nH]ncc3c2)cc(C(=O)NCc2cccc3c2C(=O)NC3=O)n1C |  | 0.68 |
| Cc1n[nH]c(C)c1CNC(=O)c1cc(S(=O)(=O)c2ccc3[nH]ncc3c2)c(C)n1C |  | 7.6 |

Read-outs that look alike come from different tables or passages of the source.
